Anti-infective test results gathered from many reports (values: NIAID ChemDB through PubChem).

Shared fields: enzyme or target tests; species: HIV-1; protein: Reverse transcriptase; read by: nucleotide incorporation / radiometric; measure: fold resistance

An empty or dashed field is not shown. Lines come from different laboratories, so protocols vary. Fold resistance has wild type as its base. a–b is a range or a potency band.

CCN1c2ncc(CCOc3cccc4c3CNC(=O)N4CC(=O)O)cc2C(=O)N(C)c2cccnc21 ; strain or isolate: IIIB ; mutations: RT-K103N Y181C ; value: >2
CCN1c2ncc(CCOc3ccc(NC(=O)CCC(=O)O)c4ccccc34)cc2C(=O)N(C)c2cccnc21 ; mutations: RT-K103N Y181C ; value: 1–10
CCCCNC(=O)c1ccc(NC(=O)CSc2nnc(Br)n2-c2ccc(CC)c3ccccc23)c(Cl)c1 ; mutations: RT-Y181C ; value: <1
CCN1c2ncc(CCOc3cccc4c3ccc[n+]4[O-])cc2C(=O)Nc2c(C)cc(Cl)nc21 ; mutations: RT-K103N P225H ; value: 2.2
O=C(CSc1nnc(Br)n1-c1ccc(C2CC2)cc1C(F)(F)F)Nc1ccc(C(=O)O)cc1Cl ; mutations: RT-Y188L ; value: >2
O=C(CSc1nnc(Br)n1-c1ccc(C2CC2)c2ccccc12)Nc1ccc(C(=O)O)cc1Cl ; mutations: RT-Y188L ; value: >1
COC(=O)[C@@H](NC(=O)c1ccc(NC(=O)CSc2nnc(Br)n2-c2ccc(C3CC3)c3ccccc23)c(Cl)c1)C(C)C ; mutations: RT-Y188L ; value: >1
CCN1c2ncc(CCOc3ccc4c(c3)COC(=O)N4)cc2C(=O)N(C)c2cccnc21 ; strain or isolate: IIIB ; mutations: RT-K103N Y181C ; value: >2
CCN1c2ncc(CCOc3ccc(C(=O)O)c4ccccc34)cc2C(=O)N(C)c2ccc(C)nc21 ; mutations: RT-K103N Y181C ; value: 1–10
Cc1cc(S(N)(=O)=O)ccc1NC(=O)CSc1nnc(CF)n1-c1c(C)cc(C)c2ccccc12 ; mutations: RT-Y188L ; value: >2
Cc1cc(C(=O)O)ccc1NC(=O)CSc1nnc(C(F)F)n1-c1ccc(C)c2c1CCCC2 ; mutations: RT-Y181C ; value: >2
CCN1c2ncc(CCOc3ccc4on(C)c(=O)c4c3)cc2C(=O)Nc2c(C)cc(F)nc21 ; strain or isolate: IIIB ; mutations: RT-K103N Y181C ; value: >2
Cc1cc(C)cc(S(=O)(=O)c2c(C(N)=O)[nH]c3ccc(Cl)cc23)c1 ; mutations: RT-L100I ; value: 20
CCN1c2ncc(CCOc3cccc4c3CN(O)C4=O)cc2C(=O)N(C)c2cccnc21 ; strain or isolate: IIIB ; mutations: RT-K103N Y181C ; value: >1
Cc1ccc(-n2c(SCC(=O)Nc3ccc(S(=O)(=O)NC(C)C(=O)O)cc3Cl)nnc2C(F)F)c2c1CCCC2 ; mutations: RT-Y181C ; value: >2
CCN1c2ncc(CCOc3ccc4cc(C(=O)NC(C)(C)C(=O)O)ccc4c3)cc2C(=O)N(C)c2cccnc21 ; mutations: RT-Y188L ; value: >10
Cc1cc(C)cc(S(=O)(=O)c2c(C(=O)NC(C)C(N)=O)[nH]c3ccc(Cl)cc23)c1 ; mutations: RT-Y181I ; value: 43.3
CCc1cc(C2CC2)ccc1-n1c(Br)nnc1SCC(=O)Nc1ccc(C(=O)O)cc1Cl ; mutations: RT-Y188L ; value: >2
NS(=O)(=O)c1ccc(NC(=O)CSc2nnc(C(F)F)n2-c2ccc(C3CCC3)c3ccccc23)c(Cl)c1 ; mutations: RT-Y188L ; value: >1
CCN1c2ncc(CCOc3ccc(CC(=O)NN)c4ccccc34)cc2C(=O)N(C)c2ccc(Cl)nc21 ; mutations: RT-Y188L ; value: 1–10
CCc1ccc(-n2c(SCC(=O)Nc3ccc(C(=O)O)cc3C)nnc2C(F)F)c2ccccc12 ; mutations: RT-Y188L ; value: >2
Cc1cc(S(N)(=O)=O)ccc1NC(=O)CSc1nnc(Br)n1-c1ccc(C)c2c1CCCC2 ; mutations: RT-Y188L ; value: >1
O=C(CSc1nnc(Br)n1-c1ccc(C2CC2)cc1C(F)(F)F)Nc1ccc(C(=O)O)cc1Cl ; mutations: RT-Y181C ; value: >1
CCN1c2ncc(CCOc3ccc(C(=O)O)c4c3CCN(C(C)=O)C4)cc2C(=O)N(C)c2cccnc21 ; mutations: RT-V106A ; value: >10
NS(=O)(=O)c1ccc(NC(=O)CSc2nnc(C(F)F)n2-c2ccc3c4c(cccc24)CC3)c(Cl)c1 ; mutations: RT-Y188L ; value: >2

2 of the rows above, restated:

smiles	strain or isolate	mutations	value
CCN1c2ncc(CCOc3ccc(NC(=O)CCC(=O)O)c4ccccc34)cc2C(=O)N(C)c2cccnc21		RT-K103N Y181C	1–10
Cc1cc(C)cc(S(=O)(=O)c2c(C(=O)NC(C)C(N)=O)[nH]c3ccc(Cl)cc23)c1		RT-Y181I	43.3